These are literature values, as cited in patent US20240124533A1, “NEW HER2-BINDING POLYPEPTIDE” (AFFIBODY AB, priority 2021, published 2024).

For the data set, the target named is HER2 (Homo sapiens, UniProt P04626). The conditions noted are these: ^99mTc-labelled; 4 h after injection; cited from earlier work.

As to “H2BPP3: HER2-binding reference polypeptide containing a C-terminal KVDC chelator (SEQ ID NO:3), ZHER2:2395 of Ahlgren et al (2009), recombinantly produced [Polypeptide H2BPP3]”, the renal uptake is 140-190 % ID/g.
